Pooled drug test results. Numbers come from NIAID ChemDB, via PubChem.

All rows: tests in culture; organism: HIV-1; strain: RF; cell line: MT-2; method: hybridisation; measure: EC50

ECn is the concentration giving n% inhibition of infection, replication or growth. Conditions beyond the fields shown may differ between rows.

SMILES | result
CNc1n[nH]c2ccc(CN3C(=O)N(Cc4ccc5[nH]nc(NC)c5c4)[C@H](Cc4ccccc4)[C@H](O)[C@@H](O)[C@H]3Cc3ccccc3)cc12 | <0.279 µM
CCCCN1C(=O)N(CCCC)[C@H](Cc2ccccc2)[C@H](O)[C@@H](O)[C@H]1Cc1ccccc1 | <0.68 µM
C=CCN1C(=O)N(Cc2ccc3ccccc3c2)[C@H](Cc2ccccc2)[C@H](O)[C@@H](O)[C@H]1Cc1ccccc1 | <0.99 µM
O=C1N(Cc2ccccc2)[C@H](Cc2ccc(OCc3ccncc3)cc2)[C@H](O)[C@@H](O)[C@@H](Cc2ccc(OCc3ccncc3)cc2)N1Cc1ccccc1 | <0.1 µM
CN(C)c1cccc(C[C@@H]2[C@H](O)[C@@H](O)[C@@H](Cc3cccc(N(C)C)c3)N(Cc3ccccc3)C(=O)N2Cc2ccccc2)c1 | <1.2 µM
O=C1N(CC2CCC2)[C@H](Cc2ccccc2)[C@H](O)[C@@H](O)[C@@H](Cc2ccccc2)N1CC1CCC1 | <1 µM
CCCNc1n[nH]c2ccc(CN3C(=O)N(Cc4ccc5[nH]nc(NCCC)c5c4)[C@H](Cc4ccccc4)[C@H](O)[C@@H](O)[C@H]3Cc3ccccc3)cc12 | <0.04 µM
O=C1N(Cc2ccc(Cl)cc2)[C@H](Cc2ccccc2)[C@H](O)[C@@H](O)[C@@H](Cc2ccccc2)N1Cc1ccc(Cl)cc1 | <4.5 µM
C=CCN1C(=O)N(CC=C)[C@H](Cc2ccccc2)[C@H](O)[C@@H](O)[C@H]1Cc1ccccc1 | <4.7 µM
COc1ccccc1C[C@@H]1[C@H](O)[C@@H](O)[C@@H](Cc2ccccc2OC)N(Cc2ccccc2)C(=O)N1Cc1ccccc1 | <8.8 µM
CN(C)CCOc1ccc(C[C@@H]2[C@H](O)[C@@H](O)[C@@H](Cc3ccc(OCCN(C)C)cc3)N(Cc3cccc(-c4ccn[nH]4)c3)C(=O)N2Cc2cccc(-c3ccn[nH]3)c2)cc1 | <5.4 µM
COc1ccc(C[C@@H]2[C@H](O)[C@@H](O)[C@@H](Cc3ccc(OC)cc3)N(Cc3ccccc3)C(=O)N2Cc2ccccc2)cc1 | <0.6 µM
N#CN=C1N(Cc2cccc(N)c2)[C@H](Cc2ccccc2)[C@H](O)[C@@H](O)[C@@H](Cc2ccccc2)N1Cc1cccc(N)c1 | <0.5 µM
O=C1N(Cc2ccccc2)[C@H](Cc2ccc(O)cc2)[C@H](O)[C@@H](O)[C@@H](Cc2ccc(O)cc2)N1Cc1ccccc1 | <0.184 µM
C#CCN1C(=O)N(CC#C)[C@H](Cc2ccccc2)[C@H](O)[C@@H](O)[C@H]1Cc1ccccc1 | <42 µM
CC(C)Nc1n[nH]c2ccc(CN3C(=O)N(Cc4ccc5[nH]nc(NC(C)C)c5c4)[C@H](Cc4ccccc4)[C@H](O)[C@@H](O)[C@H]3Cc3ccccc3)cc12 | <0.024 µM
O=C1N(Cc2cccc([N+](=O)[O-])c2)[C@H](Cc2ccccc2)[C@H](O)[C@@H](O)[C@@H](Cc2ccccc2)N1Cc1cccc([N+](=O)[O-])c1 | <0.97 µM
O=C1N(Cc2ccc3[nH]ncc3c2)[C@H](Cc2ccccc2)[C@H](O)[C@@H](O)[C@@H](Cc2ccccc2)N1Cc1ccc2[nH]ncc2c1 | <0.008 µM
O=C1N(Cc2ccccc2)[C@H](Cc2ccoc2)[C@H](O)[C@@H](O)[C@@H](Cc2ccoc2)N1Cc1ccccc1 | <7.8 µM
O=C1N(Cc2ccccc2Cl)[C@H](Cc2ccccc2)[C@H](O)[C@@H](O)[C@@H](Cc2ccccc2)N1Cc1ccccc1Cl | <11.3 µM
O=C1N(Cc2ccc(CO)cc2)[C@H](Cc2ccccc2)[C@H](O)[C@@H](O)[C@@H](Cc2ccccc2)N1Cc1ccc(CO)cc1 | <0.136 µM
N#CN=C1N(Cc2ccc(OCc3ccccc3)cc2)[C@H](Cc2ccccc2)[C@H](O)[C@@H](O)[C@@H](Cc2ccccc2)N1Cc1ccc(OCc2ccccc2)cc1 | <67.3 µM
O=C1N(Cc2ccccc2)[C@H](Cc2ccccc2)[C@H](O)[C@@H](O)[C@@H](Cc2ccccc2)N1Cc1ccccc1 | <0.79 µM
CCCCN1C(=O)N(CCCC)[C@H](Cc2ccccc2)[C@H](O)[C@@H](O)[C@H]1Cc1ccccc1 | <0.68 µM
COc1ccc(C[C@@H]2[C@H](O)[C@@H](O)[C@@H](Cc3ccc(OC)cc3)N(Cc3ccccc3)C(=O)N2Cc2ccccc2)cc1 | <0.6 µM
N#CN=C1N(Cc2ccccc2)[C@H](Cc2ccccc2)[C@H](O)[C@@H](O)[C@@H](Cc2ccccc2)N1Cc1ccccc1 | <3.8 µM
O=C1N(Cc2cccc(Cl)c2)[C@H](Cc2ccccc2)[C@H](O)[C@@H](O)[C@@H](Cc2ccccc2)N1Cc1cccc(Cl)c1 | <1.3 µM

The last 2 rows once more:

SMILES | result
N#CN=C1N(Cc2ccccc2)[C@H](Cc2ccccc2)[C@H](O)[C@@H](O)[C@@H](Cc2ccccc2)N1Cc1ccccc1 | <3.8 µM
O=C1N(Cc2cccc(Cl)c2)[C@H](Cc2ccccc2)[C@H](O)[C@@H](O)[C@@H](Cc2ccccc2)N1Cc1cccc(Cl)c1 | <1.3 µM